A mixed list of measured activities; the numbers were collected in NIAID ChemDB.

Shared fields: enzyme or target tests

Conditions beyond the fields shown may differ between rows. ICn is the concentration giving n% inhibition. Two numbers with a dash give a range or band. An empty or dashed field is not shown. Inhibition is in % at the dose shown (toxicity tests: loss of growth or viability).

structure | mutations | protein | endpoint | species | dose | strain or isolate | read by | value
Cc1cc(C)nc(-c2ccc(C=C3SC(=S)N(c4ccc(C(=O)O)cc4)C3=O)o2)c1 | - | NS5 polymerase | IC50 | Bovine viral diarrhea virus | - | - | - | ≤1 µM
CN(Cc1ccc2nc(N)nc(N)c2n1)c1ccc(C(=O)NC23CC4CC(CC(C4)C2)C3)cc1 | - | Dihydrofolate reductase | IC50 | Cryptosporidium parvum | - | TYPE 1 | - | 1.8 µM
Fc1ccc(N2CCN(c3cncc(-c4cccc5ccccc45)n3)CC2)c(F)c1 | - | UL97 kinase | inhibition | Cytomegalovirus | 10 µM | - | - | >15%
O=C(O)c1cc2nc(C3CCCCC3)c(-c3ccc(OCc4ccccc4)cc3)cn2n1 | - | RNA-dependent RNA polymerase | IC50 | Hepatitis C virus | - | - | - | 1–10 µM
Cc1cc(-c2ccc(C=C3SC(=S)N(c4ccc(C(=O)O)cc4)C3=O)o2)oc1C | - | NS5 polymerase | IC50 | Bovine viral diarrhea virus | - | - | - | ≤1 µM
O=C(O)c1cc2nc(-c3ccc(OCc4ccccc4)cc3)c(CCCc3ccccc3)c(=O)n2[nH]1 | - | RNA-dependent RNA polymerase | IC50 | Hepatitis C virus | - | - | - | 1–10 µM
COc1cccc(N2CCN(c3cncc(-c4ccc(SC)cc4)n3)CC2)c1 | - | UL97 kinase | IC50 | Cytomegalovirus | - | - | - | <10 µM
Nc1nc2c(ncn2[C@H]2CO[C@@H](COP(=O)(O)OP(=O)(O)OP(=O)(O)O)O2)c(=O)[nH]1 | RT-Q151M K103N | Reverse transcriptase | Ki | HIV | - | - | radiometric | 0.035 µM
CC(=O)c1ccc(-c2cncc(N3CCN(c4cccc(C)c4C)CC3)n2)s1 | - | UL97 kinase | IC50 | Cytomegalovirus | - | - | - | <100 µM
O=C1c2c(O)c(=O)c(NS(=O)(=O)c3cccs3)cn2CCN1Cc1ccc(F)c(Cl)c1 | - | Integrase | IC50 | HIV-1 | - | - | ELISA | 0.01–0.1 µM
CN(Cc1ccc2nc(N)nc(N)c2n1)c1ccc(Cl)c(Cl)c1 | - | Dihydrofolate reductase | IC50 | Cryptosporidium parvum | - | TYPE 2 | - | 0.02 µM
O=C(O)c1ccc(N2C(=O)/C(=C\c3ccc(-c4cc(C(F)(F)F)ccc4Cl)o3)SC2=S)cc1 | - | NS5 polymerase | IC50 | Bovine viral diarrhea virus | - | - | - | ≤1 µM
CCC(=O)N(Cc1ccccc1)c1cc(-c2ccccc2)sc1C(=O)O | - | NS3 ATPase | IC50 | Hepatitis C virus | - | - | - | <5 µM
COc1cc(CN(C)c2ccc3nc(N)nc(N)c3c2Cl)cc(OC)c1OC | - | Dihydrofolate reductase | IC50 | Cryptosporidium parvum | - | TYPE 1 | - | 0.038 µM
O=C(O)c1ccc(N2C(=O)C(=Cc3ccc(-c4ccccc4C(F)(F)F)o3)SC2=S)cc1 | - | NS5 polymerase | IC50 | Bovine viral diarrhea virus | - | - | - | ≤1 µM
Cc1nn2c(C3CCCCC3)c(-c3ccoc3)cnc2c1C(=O)O | - | RNA-dependent RNA polymerase | IC50 | Hepatitis C virus | - | - | - | >10 µM
O=C(O)CCN1C(=O)C(=Cc2ccc(-c3ccccc3C(F)(F)F)o2)SC1=S | - | NS5 polymerase | IC50 | Bovine viral diarrhea virus | - | - | - | ≤1 µM
COC(=O)c1cc2ncc(-c3ccc(OCc4ccccc4)cc3)c(C3CCCCC3)n2n1 | - | RNA-dependent RNA polymerase | IC50 | Hepatitis C virus | - | - | - | >10 µM
CCCc1cccc(-c2nc3nc(N)nc(N)c3nc2-c2cccc(CCC)c2)c1 | - | Dihydrofolate reductase | IC50 | Cryptosporidium parvum | - | TYPE 1 | - | >10 µM
COCc1cc(=O)c(O)c2n1CCN(Cc1ccc(Cl)c(Cl)c1)C2=O | - | Integrase | IC50 | HIV-1 | - | - | ELISA | 0.01–0.1 µM
COc1ccc(-c2cc(-c3ccc(C(F)(F)F)cc3)nc3cc(C(=O)O)nn23)cc1 | - | RNA-dependent RNA polymerase | IC50 | Hepatitis C virus | - | - | - | >10 µM
CN(C(=O)c1ccc(Cl)nc1Cl)c1cc(-c2ccccc2)sc1C(=O)O | - | NS3 ATPase | IC50 | Hepatitis C virus | - | - | - | 5–20 µM
O=C1c2c(O)c(=O)ccn2CCN1Cc1ccc(F)cc1 | - | Integrase | IC50 | HIV-1 | - | - | ELISA | 0.01–0.1 µM
COc1cc(N(C)Cc2cccc3nc(N)nc(N)c23)cc(OC)c1OC | - | Dihydrofolate reductase | IC50 | Cryptosporidium parvum | - | TYPE 2 | - | >10 µM
COc1ccccc1N1CCN(c2cncc(-c3ccc4ccccc4c3)n2)CC1 | - | UL97 kinase | inhibition | Cytomegalovirus | 1 µM | - | - | <50%
CC(C)N(C(=O)c1ccc(Cl)cc1F)c1cc(-c2ccccc2)sc1C(=O)O | - | NS3 ATPase | IC50 | Hepatitis C virus | - | - | - | <5 µM
CC(Nc1cc(-c2ccc(Cl)cc2)nc2cc(C(=O)O)nn12)c1ccccc1 | - | RNA-dependent RNA polymerase | IC50 | Hepatitis C virus | - | - | - | >10 µM
Oc1cccc(-c2cncc(N3CCN(c4ccncc4)CC3)n2)c1 | - | UL97 kinase | inhibition | Cytomegalovirus | 1 µM | - | - | <50%
O=C(NCCO)c1cnn2c(C3CCCCC3)c(-c3ccc(OCc4ccccc4)cc3)cnc12 | - | RNA-dependent RNA polymerase | IC50 | Hepatitis C virus | - | - | - | 1–10 µM
COc1ccc(OC)c(NCc2ccc3nc(N)nc(N)c3c2Cl)c1 | - | Dihydrofolate reductase | IC50 | Cryptosporidium parvum | - | TYPE 2 | - | 0.0065 µM
CC(C)(C)c1ccc(-c2cncc(N3CCN(c4ccccc4)CC3)n2)cc1 | - | UL97 kinase | inhibition | Cytomegalovirus | 10 µM | - | - | >15%
Cc1ccc(C(=O)N(C)c2cc(-c3cccc([N+](=O)[O-])c3)sc2C(=O)O)cc1 | - | NS3 ATPase | IC50 | Hepatitis C virus | - | - | - | <5 µM
COc1cccc(-c2cncc(N3CCN(c4ccccc4OC)CC3)n2)c1 | - | UL97 kinase | IC50 | Cytomegalovirus | - | - | - | <10 µM
O=c1c(-c2ccccc2)cn2c(CC3CCCCC3)cn(Cc3cccc(Cl)c3)c(=O)c2c1O | - | Integrase | IC50 | HIV-1 | - | - | ELISA | 0.1–1 µM

A second listing of 4 rows from above:

structure	mutations	protein	endpoint	species	dose	strain or isolate	read by	value
COC(=O)c1cc2ncc(-c3ccc(OCc4ccccc4)cc3)c(C3CCCCC3)n2n1	-	RNA-dependent RNA polymerase	IC50	Hepatitis C virus	-	-	-	>10 µM
COCc1cc(=O)c(O)c2n1CCN(Cc1ccc(Cl)c(Cl)c1)C2=O	-	Integrase	IC50	HIV-1	-	-	ELISA	0.01–0.1 µM
Cc1cc(-c2ccc(C=C3SC(=S)N(c4ccc(C(=O)O)cc4)C3=O)o2)oc1C	-	NS5 polymerase	IC50	Bovine viral diarrhea virus	-	-	-	≤1 µM
Cc1cc(C)nc(-c2ccc(C=C3SC(=S)N(c4ccc(C(=O)O)cc4)C3=O)o2)c1	-	NS5 polymerase	IC50	Bovine viral diarrhea virus	-	-	-	≤1 µM